Measured values from several laboratories, pooled; numbers as filed in NIAID ChemDB.

All rows: tests in culture; agent: Mycobacterium tuberculosis

ECn is the concentration giving n% inhibition of infection, replication or growth. Blank or dashed fields: not listed here. Percent inhibition refers to the dose given; in toxicity tests it is the harm to the cells. MIC bound: limit read from a one-dose screen. A number after MIC or MFC names an inhibition level or a share of isolates. Neighbouring rows are from separate reports. Two numbers with a dash give a range or band.

compound | conditions | tested at | mutations | method | measure | cell line | strain | value
COc1c(N2CC[C@@H](C(C)(C)N)C2)c(F)cc2c(=O)c3c(=O)[nH]sc3n(C3CC3)c12 | - | - | - | - | MIC | - | Pan-susceptible clinical isolate 4 | 0.06 µg/mL
CC[C@H]1OC(=O)[C@H](C)[C@@H](O[C@H]2C[C@@](C)(OC)[C@@H](O)[C@H](C)O2)[C@H](C)[C@@H](O[C@@H]2O[C@H](C)C[C@H](N(C)C)[C@H]2O)[C@](C)(OC)C[C@@H](C)C(=O)[C@H](C)[C@@H](O)[C@]1(C)O | - | - | - | - | MIC | - | 91196 | >4 µg/mL
CSc1ccc(NC(=O)Nc2c(C)n(C)n(-c3ccccc3)c2=O)cc1 | - | 12.8 µg/mL | - | BACTEC | inhibition | - | H37Rv | 17%
CCCCN=C(N=Nc1c(O)[nH]c2ccccc12)SCC(=O)c1ccc([N+](=O)[O-])cc1 | - | - | - | - | MIC | - | H37Rv | 12.5 µg/mL
CCO/C=N/c1oc(-c2ccccc2)nc1C#N | - | 12.5 µg/mL | - | BACTEC | inhibition | - | H37Rv | 8%
CCOc1cc(/C=N/N=c2\scc(-c3cc4cc(Br)ccc4oc3=O)n2C2CCCCC2)ccc1O | - | - | - | - | EC50 | - | H37Rv | <12.5 µg/mL
COc1ccc(C(=O)N/N=C/c2ccco2)cc1 | - | - | - | - | MIC | - | - | 10 µg/mL
O=C(Nc1ccc(Br)cc1)c1cc(Cl)ccc1OP(=O)(Oc1ccccc1)c1ccccc1 | 7 d | - | - | - | MIC | - | My 331/88 | 4 µM
O=C(O)[C@@H]1C[C@@H](O)CCN1 | - | - | - | BACTEC | MIC bound | - | H37Rv | >12.8 µg/mL
O=C(Nc1ccc(Br)cc1)c1cc(Cl)ccc1OP(=O)(c1ccccc1)c1ccccc1 | 14 d | - | - | - | MIC | - | My 331/88 | 4 µM
CO[C@H]1/C=C/O[C@@]2(C)Oc3c(C)c(O)c4c(O)c(c(/C=N/N5CCN(C)CC5)c(O)c4c3C2=O)NC(=O)/C(C)=C\C=C\[C@H](C)[C@H](O)[C@@H](C)[C@@H](O)[C@@H](C)[C@H](OC(C)=O)[C@@H]1C | - | - | - | - | MIC | - | 13268 | 0.09 µg/mL
COc1ccc(C2CC(=O)c3c(cc(OC)c(-c4c(OC)cc5c(c4OC)C(=O)CC(c4ccc(OC)cc4)O5)c3OC)O2)cc1 | - | - | - | - | EC50 | - | H37Rv | >12.5 µg/mL
O=C1c2c(O)c(O)c(S(=O)(=O)O)c(O)c2C(=O)c2c(O)c(O)c(S(=O)(=O)O)c(O)c21 | - | - | - | - | MIC bound | - | H37Rv | >6.25 µg/mL
CN=C(N=Nc1c(O)[nH]c2ccccc12)SCC(=O)c1ccc(Br)cc1 | - | - | - | - | MIC | - | H37Rv | 6.25 µg/mL
O=C1CC(c2ccc(Br)cc2)Oc2ccccc21 | - | 12.5 µg/mL | - | - | inhibition | - | H37Rv | 26%
O.O=C(CSc1nc2ccccc2c(=O)n1-c1ccccc1)N=Nc1c(O)n(CN2CCOCC2)c2ccccc12 | - | - | - | - | MIC | - | H37Rv | >12.5 µg/mL
O=C(Nc1ccc(Cl)c(Cl)c1)c1cc(Cl)ccc1OP(=O)(OCc1ccccc1)OCc1ccccc1 | 14 d | - | - | - | MIC | - | My 331/88 | 32 µM
CCCCCCCCNS(=O)(=O)c1ccc2c(c1)C(=O)c1nc3ncccc3c(=O)n1-2 | - | - | - | - | MIC | - | H37Rv | 8 µg/mL
COc1cccc2c1cc1c3c(cc4c(c32)OCO4)C(=O)N1 | - | - | - | resazurin | MIC | - | SIN452 | 12.5 µg/mL
CCCCCC/C=C/c1ccc2c(c1)C(=O)c1nc3ccncc3c(=O)n1-2 | - | - | - | - | MIC | - | H37Rv | 0.06 µg/mL
NNC(=O)c1ccncc1 | - | - | Extensively drug-resistant | resazurin | MIC | - | FJ05195 | >256 µg/mL
O=c1[nH][nH]c(=O)c2ncccc12 | - | - | - | - | MIC | - | - | >200 µg/mL
Cc1noc(NS(=O)(=O)c2ccc(N=Nc3ccc(O)cn3)cc2)c1C | - | - | - | BACTEC | MIC bound | - | H37Rv | >12.5 µg/mL
O=C1c2cc(OC(F)(F)F)ccc2-n2c1nc1ccccc1c2=O | - | - | - | - | MIC | - | H37Rv | 0.03 µg/mL
CN(C)C(=O)CSc1nc(N)c2c3c(sc2n1)CC(C(C)(C)C)CC3 | - | - | - | MTT / visual reading | MIC | - | H37Rv | >200 µg/mL
S=C(Nc1ccc(Cl)cc1)c1ccccn1 | - | - | - | - | MIC bound | - | H37Rv | <6.25 µg/mL
CCOc1ccc(C(=O)N/N=C/C=C/c2ccccc2)cc1 | - | - | - | - | MIC | - | - | <40 µg/mL
O=C1CC(c2ccccc2)Oc2cc(I)ccc21 | - | - | - | - | EC50 | - | - | >12.5 µg/mL
CO[C@H]1/C=C/O[C@@]2(C)Oc3c(C)c(O)c4c(O)c(cc(OCC(=O)N(C)N(C)C)c4c3C2=O)NC(=O)/C(C)=C\C=C\[C@H](C)[C@H](O)[C@@H](C)[C@@H](O)[C@@H](C)[C@H](OC(C)=O)[C@@H]1C | - | - | - | - | MIC | - | H37Rv | 0.18 µg/mL
Cc1cc(=O)c2c(o1)-c1c(cc(O)c(O)c1C(=O)O)OC2 | - | 12.8 µg/mL | - | BACTEC | inhibition | - | H37Rv | 23%
CCNC(=S)N=Nc1c(O)[nH]c2ccc(Br)cc12 | - | 12 µg/mL | - | - | inhibition | - | H37Rv | 57%
COc1ccc2cc([N+](=O)[O-])c3ccc(=O)oc3c2c1 | - | - | - | resazurin | MIC | - | H37Rv | 25 µg/mL
C#CCN(CCC)C(=O)COc1cc2c(O)c3c(O)c(C)c4c(c13)C(=O)[C@@](C)(O/C=C/[C@H](OC)[C@@H](C)[C@@H](OC(C)=O)[C@H](C)[C@H](O)[C@H](C)[C@@H](O)[C@@H](C)/C=C/C=C(/C)C(=O)N2)O4 | - | - | - | - | MIC | - | H37Rv | 0.37 µg/mL
O=C(CSc1nc2ccccc2c(=O)n1-c1ccccc1)N=Nc1c(O)[nH]c2ccccc12 | - | - | - | - | MIC | - | H37Rv | >12.5 µg/mL
CC(C)=CCOc1c2ccoc2cc2oc(=O)ccc12.NNC(=O)c1ccncc1 | - | - | Ethambutol-resistant | agar | MIC100 | - | H37Rv clinical isolate CRY4 | 3.12 µg/mL
CCOC(=O)c1c(N)oc(=O)c2c1-c1ccccc1C2=O | - | 12.5 µg/mL | - | BACTEC | inhibition | - | H37Rv | -17%
CC(=O)Nc1ccc(C(=O)NNC(=O)c2ccc(NC(C)=O)cc2)cc1 | - | - | - | - | MIC | - | - | 100–200 µg/mL
O=C1c2cc(I)ccc2-n2c1nc1ncccc1c2=O | - | - | - | - | MIC | - | TN2050RFLF:CO (MDR) | 0.06 µg/mL
CO[C@H]1/C=C/O[C@@]2(C)Oc3c(C)c(O)c4c(=O)c(c5oc6cc(N7CCN(CC(C)C)CC7)cc(=O)c6nc5c4c3=C2O)NC(=O)/C(C)=C\C=C\[C@H](C)[C@H](O)[C@@H](C)[C@@H](O)[C@@H](C)[C@H](OC(C)=O)[C@@H]1C | - | - | - | - | MBC | - | 2831 (rifampin-sensitive) | 0.012 µg/mL
CC(=O)Oc1ccccc1C(=O)Nc1ncc([N+](=O)[O-])s1 | - | - | - | visual reading | MIC | - | Haarlem spoligotype 50 | 20 µg/mL
O=C(Nc1ccc(C(F)(F)F)cc1)c1cc(Cl)ccc1OP(=O)(c1ccccc1)c1ccccc1 | 14 d | - | - | - | MIC | - | Praha 131 | 1 µM
O=c1oc2ccc(Br)cc2cc1-c1cs/c(=N\N=C\c2cc(Br)ccc2O)n1C1CCCCC1 | - | - | - | - | MIC | - | H37Rv | >12.5 µg/mL
CNc1ccc(C)cc1S(=O)(=O)c1ccccc1[N+](=O)[O-] | - | - | - | BACTEC | MIC bound | - | H37Rv | >12.5 µg/mL
CCCCCC(C)NC(=O)COc1cc2c(O)c3c(O)c(C)c4c(c13)C(=O)[C@@](C)(O/C=C/[C@H](OC)[C@@H](C)[C@@H](OC(C)=O)[C@H](C)[C@H](O)[C@H](C)[C@@H](O)[C@@H](C)/C=C/C=C(/C)C(=O)N2)O4 | - | - | - | - | MIC | - | H37Rv | 0.18 µg/mL
COc1ccccc1/C=C/C(=O)c1ccccc1O | - | 12.5 µg/mL | - | - | inhibition | - | - | 39%
CO[C@H]1/C=C/O[C@@]2(C)Oc3c(C)c(O)c4c(=O)c(c5oc6cc(N7CCN(C(C)C)CC7)cc(=O)c6nc5c4c3=C2O)NC(=O)/C(C)=C\C=C\[C@H](C)[C@H](O)[C@@H](C)[C@@H](O)[C@@H](C)[C@H](OC(C)=O)[C@@H]1C | - | - | - | - | MIC | - | 27 (rifampin-resistant) | 0.1 µg/mL
CO[C@H]1/C=C/O[C@@]2(C)Oc3c(C)c(O)c4c(O)c(cc(OCC(=O)N5CCOCC5)c4c3C2=O)NC(=O)/C(C)=C\C=C\[C@H](C)[C@H](O)[C@@H](C)[C@@H](O)[C@@H](C)[C@H](OC(C)=O)[C@@H]1C | - | - | - | - | MIC | - | H37Rv | 0.1 µg/mL
Cc1ccc(O)c(/C=N/NC(=O)Cc2cccs2)c1 | - | - | - | resazurin | MIC | - | H37Rv (ATCC 27294) | 364.5 µM
O=C(N/N=C/c1ccccc1O)c1ccccc1Cl | - | - | - | - | MIC | - | - | >200 µg/mL
CC(C)OC(=O)CSc1nc(N)c2c3c(sc2n1)CC(C(C)(C)C)CC3 | - | - | - | MTT / visual reading | MIC | - | H37Rv | 3.1 µg/mL
CC(=O)O/N=C1\C(C)=[N+]([O-])[N+]([O-])=C1c1ccccc1 | - | 6.25 µg/mL | - | resazurin | inhibition | - | H37Rv | 36%
CCCCCCC(O)C/C=C\CCCCCCCC(=O)N/N=C/c1ccccc1 | - | - | - | - | MIC | - | - | >200 µg/mL
O=C1c2cc(Cl)ccc2-n2c1nc1cc(N3CCCCC3)ccc1c2=O | - | - | - | - | MIC | - | H37Rv | 0.13 µg/mL
S=C1N(C2CCCCC2)CCN1C1CCCCC1 | - | - | - | BACTEC | MIC bound | - | H37Rv | >12.5 µg/mL
CC(C)(C)C1CCc2c(sc3nc(SCc4noc5ccccc45)nc(N)c23)C1 | - | - | - | MTT / visual reading | MIC | - | H37Rv | >200 µg/mL
O=C(/C=C/c1ccccc1)NNC(=O)/C=C/c1ccccc1 | - | - | - | - | MIC | - | - | >200 µg/mL
C=CCn1c(-c2cc3ccccc3oc2=O)cs/c1=N\N=C\c1ccc(O)c(OCC)c1 | - | - | - | - | MIC | - | H37Rv | <12.5 µg/mL
O=C(/C=C/c1ccc(O)cc1)c1c(O)cc(O)cc1OC1C(O)C(O)C(O)C(O)C1O | - | - | - | BACTEC | MIC bound | - | H37Rv | >12.5 µg/mL
O=C(Cc1cccs1)N/N=C/c1ccccc1[N+](=O)[O-] | - | - | - | resazurin | MIC | - | H37Rv (ATCC 27294) | >100 µg/mL
Cn1c(-c2ccc(Br)cc2)cs/c1=N\N=C1/C(=O)Nc2ccccc21.O | - | - | - | - | EC50 | - | H37Rv | >12 µg/mL
O=C(Nc1ccc(Br)cc1)c1cnccn1 | - | - | - | - | MIC | - | PZA-R | >12.5 µg/mL
O=C1c2cc(Br)ccc2OP(=O)(c2ccccc2)N1c1ccc(C(F)(F)F)cc1 | 21 d | - | - | - | MIC | - | Praha 131 | 1 µM
COc1ccc2nc(N/N=C/c3ccccn3)cc(C)c2c1 | - | 12.5 µg/mL | - | BACTEC | inhibition | - | H37Rv | 99%
O=C1c2cc(Cl)ccc2OP(=O)(c2ccccc2)N1c1ccc(C(F)(F)F)cc1 | 14 d | - | - | - | MIC | - | Praha 131 | 1 µM
O=C(N/N=C/c1ccc2c(c1)OCO2)C(=O)N/N=C/c1ccc2c(c1)OCO2 | - | 12.5 µg/mL | - | BACTEC | inhibition | - | H37Rv | -9%
CCCCCCCCS(=O)(=O)CC(N)=O | - | - | - | - | MIC | - | 42-1C9383 | ≤12.5 µg/mL
O=C(Nc1ccc(Br)cc1)c1cc(Cl)ccc1OP(=O)(OCc1ccccc1)OCc1ccccc1 | 7 d | - | - | - | MIC | - | My 331/88 | 8 µM
O=C(Cc1cccs1)N/N=C/c1ccco1 | - | - | - | resazurin | MIC | - | H37Rv (ATCC 27294) | >100 µg/mL
O=C1c2ccccc2C(=O)c2sc(Nc3ccc(Cl)cc3)nc21 | - | - | - | BACTEC | MIC | VERO | H37Rv | 0.8 µg/mL
C=CCn1c(-c2cc3cc(Br)ccc3oc2=O)cs/c1=N\N=C\c1ccc(Cl)cc1 | - | - | - | - | MIC | - | H37Rv | >12.5 µg/mL
CO[C@H]1/C=C/O[C@@]2(C)Oc3c(C)c(O)c4c(O)c(c(/C=N/N5CCN(C)CC5)c(O)c4c3C2=O)NC(=O)/C(C)=C\C=C\[C@H](C)[C@H](O)[C@@H](C)[C@@H](O)[C@@H](C)[C@H](OC(C)=O)[C@@H]1C | - | - | - | - | MIC | - | MC8 | <2 µg/mL
O=C1c2cc(Br)ccc2-n2c1nc1cnccc1c2=O | - | - | - | - | MIC | - | H37Rv | 0.13 µg/mL
NC(=O)NCCCC(N)C(=O)O | - | 12.5 µg/mL | - | BACTEC | inhibition | - | H37Rv | 11%
O=C1c2cc(F)ccc2-n2c1nc1cc(F)c(F)cc1c2=O | - | - | - | - | MIC | - | H37Rv | 0.13 µg/mL
COc1cc2c(cc1OC)C1C(=O)c3c(O)cc4c(c3OC1CO2)C=CC(C)(C)O4 | - | - | - | BACTEC | MIC | - | H37Rv | ≥12.8 µg/mL
O=C(Cc1cccs1)N/N=C/c1cccc(Br)c1 | - | - | - | resazurin | MIC | - | H37Rv (ATCC 27294) | >100 µg/mL
CN(C)c1c([N+](=O)[O-])cc(N)cc1[N+](=O)[O-] | - | - | - | BACTEC | MIC bound | - | H37Rv | >12.5 µg/mL
N#CNNC(=O)c1ccccc1 | - | - | - | - | MIC | - | - | >40 µg/mL
CCOC(=O)[C@H](C)Sc1nc(N)c2c3c(sc2n1)CC(C(C)(C)C)CC3 | - | - | - | MTT / visual reading | MIC | - | H37Rv | 3.1 µg/mL
COc1c(O)cc2oc3cc(O)c(CC=C(C)C)c(O)c3c(=O)c2c1CC=C(C)C | - | - | - | - | MIC | - | KM-R | 6.4 µg/mL
O=c1oc2ccc(Br)cc2cc1-c1cs/c(=N/N=C/c2ccc(Cl)cc2)n1C1CCCCC1 | - | 12.5 µg/mL | - | - | inhibition | - | H37Rv | 40%
C/C(=N\N=C(/C)c1ccccc1)c1ccccc1 | - | - | - | - | MIC | - | - | >200 µg/mL